Results of unrelated studies side by side (data: NIAID ChemDB).

All rows: toxicity to cultured cells; cells: HFF; endpoint: CC50

CCn is the concentration with n% toxicity to the cells.

SMILES | read by | result
O[C@]12C=C(c3nccc4c3[nH]c3ccccc34)[C@@H]3CCN(CCCC/C=C/CC1)C[C@@]31C[C@@H]3/C=C\CCCCN3C12 |  | >0.1 µM
OC[C@H]1O[C@@H](n2c(SCc3ccccc3)nc3cc4cc(Cl)c(Cl)cc4cc32)[C@H](O)[C@@H]1O |  | >100 µM
Clc1nc(Br)[nH]c1Cl |  | >100 µM
N=c1ccc(=Nc2ccc(N)c3c(O)c4ccccc4c(O)c23)c2c(=O)c3ccccc3c(=O)c1=2 |  | >1500 µM
N#Cc1cn([C@@H]2O[C@H](CO)[C@@H](O)[C@H]2O)c2ncnc(N)c12 |  | 0.03 µM
Nc1nc(F)nc2c1ncn2/C=C1\CC1CO |  | >300 µM
NC(=O)c1c(N)n(COC(CO)CO)c2ncnc(N)c12 | visual reading | >100 µM
N#Cc1cn([C@@H]2O[C@H](CO)[C@@H](O)[C@@H]2O)c2ncnc(N)c12 |  | 10 µM
NC(=S)c1cn([C@@H]2O[C@H](CO)C[C@H]2O)c2ncnc(N)c12 |  | 2.1 µM
[CH3][Sn]([CH3])([Br])[Br].c1cnc2c(c1)ccc1cccnc12 |  | 75 µg/mL
OC[C@H]1O[C@@H](n2cnc3cc(Cl)c(Cl)cc32)[C@H](O)[C@@H]1O |  | 24 µM
OC[C@H]1O[C@@H](n2c(Br)nc(Br)c2Br)[C@H](O)[C@H]1O |  | >100 µM
Nc1ncnc2c1ccn2[C@@H]1O[C@H](CO)[C@@H](O)[C@H]1O |  | 0.5 µM
COC(=O)[C@H](C)NP(=O)(OCC1C/C1=C\n1cnc2c(N)ncnc21)Oc1ccccc1 |  | 141 µM
CN[C@H]1C[C@@H]2O[C@](C)([C@H]1OC)n1c3ccccc3c3c4c(c5c6ccccc6n2c5c31)C(=O)NC4 |  | 0.0098 µM
OCC1OC(n2c(SCc3ccccc3)nc3nc4cc(Cl)c(Cl)cc4nc32)C(O)C1O |  | 20 µM
C[CH2][Sn]([Cl])([Cl])[CH2]C |  | 11 µg/mL
NC(=S)c1cn([C@H]2CC[C@@H](CO)O2)c2ncnc(N)c12 |  | 29 µM
Clc1nc(Cl)c(Cl)[nH]1 |  | 75 µM
CCOC(=O)C1C(c2ccc(Cl)cc2)CC(c2ccc(OC)cc2)=CC12NCCN2 |  | 0.1279 µM
COc1ccc2c(c1)c1c3c(c4c5ccccc5n(C)c4c1n2CC(O)CN(C)C)C(=O)NC3=O |  | >0.1 µM
OCCOCn1c(Br)nc(Br)c1Br |  | >100 µM
Cc1nc2n(c(=O)c1CCN1CCC(c3noc4cc(F)ccc34)CC1)CCCC2 |  | 129 µg/mL
[Cl][Sn]([Cl])([Cl])[c]1ccccc1 |  | 1.6 µg/mL
NC(=S)c1c(N)n(COC(CO)CO)c2ncnc(N)c12 | visual reading | >100 µM
N#Cc1cn([C@@H]2O[C@H](CO)[C@@H](O)[C@H]2O)c2ncnc(N)c12 | visual reading | 0.03 µM
N#Cc1cn([C@H]2C[C@H](O)[C@@H](CO)O2)c2ncnc(N)c12 |  | 66 µM
CC[C@@]1(C)NC(=O)[C@H](CCCCCC(=O)[C@H](C)OC(C)=O)NC(=O)[C@H]2C[C@H](C)CN2C(=O)C(Cc2ccccc2)NC1=O |  | 0.6321 µM
Oc1cccc2c1[nH]c1c(C3=C[C@]4(O)C/C=C/CCCCCN5CC[C@@H]3[C@]3(C[C@@H]6/C=C\CCCCN6C34)C5)nccc12 |  | >1 µM
[Cl][Sn]([Cl])([c]1ccccc1)[c]1ccccc1 |  | 1.2 µg/mL
Cc1cc(Nc2ccc(O)c3c2C(=O)c2ccccc2C3=O)cc(S(=O)(=O)O)c1 |  | 930 µM
OC[C@H]1O[C@@H](n2cnc3cc4cc(Cl)c(Cl)cc4cc32)[C@H](O)[C@@H]1O |  | >100 µM
Nc1nc(F)nc2c1ncn2/C=C1/CC1CO |  | 10 µM
COC(=O)[C@H](C)NP(=O)(OC[C@H]1C/C1=C/n1cnc2c(OC)nc(N)nc21)Oc1ccccc1 |  | 34 µM
OC[C@H]1O[C@@H](n2cnc(Br)c2Br)[C@H](O)[C@@H]1O |  | >100 µM
Cc1cc(C)c(Nc2cc(S(=O)(=O)O)c(N)c3c2C(=O)c2ccccc2C3=O)c(C)c1 |  | 275 µM
CCOC(=O)C1C(c2ccc(OC)cc2)CC(c2ccc(Cl)cc2)=CC12NCCN2 |  | 0.1279 µM
OCCN1CCN(CCCN2c3ccccc3Sc3ccc(C(F)(F)F)cc32)CC1 |  | 17.9 µg/mL
N#Cc1c(N)n(COC(CO)CO)c2ncnc(N)c12 | visual reading | >100 µM
OC[C@H]1O[C@@H](n2c(Br)nc(Cl)c2Cl)[C@H](O)[C@@H]1O |  | >100 µM
CCCC(CCC)C(=O)O |  | 52 µg/mL
NC(=S)c1cn([C@H]2C=C[C@@H](CO)O2)c2ncnc(N)c12 |  | 18 µM
COC(=O)[C@H](C)NP(=O)(OC[C@H]1C/C1=C/n1cnc2c(N)nc(N)nc21)Oc1ccccc1 |  | 121 µM
OC[C@H]1O[C@@H](n2c(Br)nc(Cl)c2Cl)[C@@H](O)[C@@H]1O |  | >100 µM
NC(=O)c1c(N)n([C@@H]2O[C@H](CO)[C@@H](O)[C@H]2O)c2ncnc(N)c12 | visual reading | 7 µM
OC[C@H]1O[C@@H](n2c(Cl)nc3cc4cc(Cl)c(Cl)cc4nc32)[C@H](O)[C@@H]1O |  | 18 µM
Nc1ncnc2c1c(Br)cn2COC(CO)CO | visual reading | 100 µM
CCOC(=O)C1C(c2ccc(C)cc2)CC(c2ccc(Cl)cc2)=CC12NCCN2 |  | 0.1279 µM
Cc1ccc(Cn2c(N)c(C#N)c3c(N)ncnc32)cc1 | visual reading | 32 µM
N#Cc1c(N)n([C@@H]2O[C@H](CO)[C@@H](O)[C@H]2O)c2ncnc(N)c12 | visual reading | 0.2 µM
Nc1nc(Cl)nc2c1ncn2/C=C1\CC1CO |  | >300 µM
CCOC(=O)C1C(c2ccc(C)cc2)CC(c2ccccc2)=CC12NCCN2 |  | 0.1279 µM
CCCCCCC[CH2][Sn]([Cl])([Cl])[Cl] |  | 245 µg/mL
CCOC(=O)C1C(c2ccc(F)cc2)CC(c2ccccc2)=CC12NCCN2 |  | 0.1279 µM
NC(=S)c1cn([C@@H]2O[C@H](CO)[C@H](O)[C@H]2O)c2ncnc(N)c12 |  | 0.6 µM
CCOC(=O)C1C(c2ccc(OC)cc2)CC(c2ccccc2)=CC12NCCN2 |  | 0.1279 µM
OCC(CO)OCn1c(Br)nc(Br)c1Br |  | >100 µM

Again, the opening 7 rows:

SMILES,read by,result
O[C@]12C=C(c3nccc4c3[nH]c3ccccc34)[C@@H]3CCN(CCCC/C=C/CC1)C[C@@]31C[C@@H]3/C=C\CCCCN3C12,,>0.1 µM
OC[C@H]1O[C@@H](n2c(SCc3ccccc3)nc3cc4cc(Cl)c(Cl)cc4cc32)[C@H](O)[C@@H]1O,,>100 µM
Clc1nc(Br)[nH]c1Cl,,>100 µM
N=c1ccc(=Nc2ccc(N)c3c(O)c4ccccc4c(O)c23)c2c(=O)c3ccccc3c(=O)c1=2,,>1500 µM
N#Cc1cn([C@@H]2O[C@H](CO)[C@@H](O)[C@H]2O)c2ncnc(N)c12,,0.03 µM
Nc1nc(F)nc2c1ncn2/C=C1\CC1CO,,>300 µM
NC(=O)c1c(N)n(COC(CO)CO)c2ncnc(N)c12,visual reading,>100 µM

Rows are shuffled and stem from different studies. Blank or dashed fields: not listed here.